# Experimental data as given in ChEMBL document CHEMBL1201862, “PubChem BioAssay data set” (2004).
# Only a part is listed here, and it is no random draw. These assays gave more results; the selection is not random. The source made the active and inactive calls. The calls are words filed in the database; no cut-off is given here.
# Molecular target: T1, Aldehyde dehydrogenase 1A1 (Homo sapiens) (UniProt P00352)
# T1 sequence (whole entry): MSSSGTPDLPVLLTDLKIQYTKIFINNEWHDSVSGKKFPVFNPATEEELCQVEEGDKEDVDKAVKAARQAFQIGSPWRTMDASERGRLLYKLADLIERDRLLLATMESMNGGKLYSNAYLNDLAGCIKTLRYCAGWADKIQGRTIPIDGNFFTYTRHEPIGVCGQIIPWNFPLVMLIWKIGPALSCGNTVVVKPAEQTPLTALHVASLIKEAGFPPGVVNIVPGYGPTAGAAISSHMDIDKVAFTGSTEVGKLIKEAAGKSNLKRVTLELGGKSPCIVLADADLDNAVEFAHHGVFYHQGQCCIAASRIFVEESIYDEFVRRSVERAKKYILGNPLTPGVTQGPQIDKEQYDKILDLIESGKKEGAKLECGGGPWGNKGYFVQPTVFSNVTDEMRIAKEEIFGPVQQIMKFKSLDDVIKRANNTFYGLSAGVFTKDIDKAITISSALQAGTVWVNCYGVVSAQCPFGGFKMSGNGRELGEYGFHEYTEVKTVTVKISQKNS
# Assay: qHTS Assay for Inhibitors of Aldehyde Dehydrogenase 1 (ALDH1A1). [Related pubchem assays: 1030 (qHTS Validation Assay for Inhibitors of aldehyde dehydrogenase 1 (ALDH1A1))]
# Type: functional
row,Compound,Potency
1,NC1CCCCC1.NP(=O)(O)N(CCCl)CCCl,inactive
